This is an account of results in patent US20230357364A1.

Common to all, as to conditions: remark: other sources report otherwise
The target in test [1] is SARS-CoV-2 RBD (RBD-2) (SARS-CoV-2). Nature of the test: SPR. (In general: Surface plasmon resonance follows binding to a sensor surface in real time, without labels.)
For test [2] the target is unchanged. Nature of the test: flow, HeLa-ACE2, mAb:RBD=4:1.
The target is the same in test [3]. The experiment in a line: ELISA. A general note: An ELISA detects its analyte on a solid surface through an enzyme-linked reagent.
Test [4] has the same target. Nature of the test: flow, HeLa-ACE2, mAb:RBD=2:1.
The target is the same in test [5]. The experiment in a line: SPR, Fc-captured IgG.

B1: L12.bP11A06 (antibody, V domains shown)
VH: EVQLVESGGGLIQPGGSLRLSCAASGLTVSSNYMSWVRQAPGKGLEWVSVIYSGGSTFYADSVKGRFTISRDNSKNTLYLQMNSLRAEDTAVYYCARDLDVYGLDVWGQGTTVTVSS
VL: DIVMTQSPSFLSASVGDRVTITCRASQGISSYLAWYQQKPGKAPKLLIYAASTLQSGVPSRFSGSGSGTEFTLTISSLQPEDFATYYCQQLNSYPPKFTFGPGTKVEIK
Broadly, the Kd is the equilibrium constant for the complex coming apart. High values mean a looser complex, low ones a tighter complex. The term EC50 denotes the midpoint of the concentration-response curve. A lower EC50 goes with an effect from little substance. A word on the koff: it is a measure of how fast the partners let go of each other. For orientation: kon means the second-order rate constant of association. B1 displayed a Kd in test [1] of 1.7 nM. In test [2], this molecule gave a % inhibition of RBD binding to hACE2 of 95.9% and an MFI (RBD binding to cell surface) of 528. The same molecule displayed an EC50 in test [3] of 0.042 µg/mL. Besides, in test [4], the % inhibition of RBD binding to hACE2 came to 93.3% and the MFI (RBD binding to cell surface) was 817. Further, in test [5], the Kd was 5.92 nM, the dissociation rate constant (koff) came to 0.00412 s⁻¹ and the kon was found to be 695000 M⁻¹ s⁻¹.
